Legend:
[1] = biological target: Full length EN PA (influenza endonuclease) (Influenza A virus, UniProt P15659); assay: EN PA FRET inhibition assay; format: biochemical; conditions: read-out: Potency (IC50 class), 50 Nm FRET probe, mean of a minimum of two independent experiments
[2] = tested on: Influenza strain A549_A/WSN/33 (H1N1); assay: Influenza antiviral assay (neuraminidase fluorescence readout in A549 or MDCK cells); format: cell-based, Influenza A virus; conditions: read-out: % Inhibition (EC50 class)

Structure (SMILES): CCCN1C[C@H](C2c3cccc(F)c3CCc3c(F)cccc32)n2ncc(=O)c(OCOC(=O)[C@H](N)Cc3ccccc3)c2C1=O
- IC50 [1]: < 0.25 µM
- EC50 [2]: < 20 µM

Structure (SMILES): CC(C)N1C[C@H](C2c3cccc(F)c3CCc3c(F)cccc32)n2ncc(=O)c(OCOC(=O)[C@H](N)Cc3ccccc3)c2C1=O
- IC50 [1]: < 0.25 µM
- EC50 [2]: < 20 µM

Structure (SMILES): CCCN1C[C@H](C2c3cccc(F)c3CCc3c(F)cccc32)n2ncc(=O)c(OCOC(=O)[C@@H](N)Cc3ccccc3)c2C1=O
- IC50 [1]: < 0.25 µM
- EC50 [2]: < 20 µM

Structure (SMILES): CC(C)N1C[C@H](C2c3cccc(F)c3CCc3c(F)cccc32)n2ncc(=O)c(OCOC(=O)[C@@H](N)Cc3ccccc3)c2C1=O
- IC50 [1]: < 0.25 µM
- EC50 [2]: < 20 µM

Structure (SMILES): CC(F)(F)CN1C[C@H](C2c3ccccc3CCc3ccccc32)n2ncc(=O)c(O)c2C1=O
- IC50 [1]: < 0.25 µM
- EC50 [2]: < 20 µM

Structure (SMILES): CC(C)N1C[C@H](C2c3cccc(F)c3CCc3c(F)cccc32)n2ncc(=O)c(OCOC(=O)C(C)(C)N)c2C1=O
- IC50 [1]: < 0.25 µM
- EC50 [2]: < 20 µM

Structure (SMILES): CCCN1C[C@H](C2c3cccc(F)c3CCc3c(F)cccc32)n2ncc(=O)c(OCOC(=O)C(C)(C)N)c2C1=O
- IC50 [1]: < 0.25 µM
- EC50 [2]: < 20 µM

Structure (SMILES): CCCN1C[C@H](C(c2cccc(Cl)c2)c2cccc(Cl)c2)n2ncc(=O)c(OC(=O)C(C)C)c2C1=O
- IC50 [1]: < 0.25 µM
- EC50 [2]: < 20 µM

Structure (SMILES): CCC(=O)Oc1c2n(ncc1=O)[C@@H](C1c3cccc(F)c3CCc3c(F)cccc31)CN(C(C)C)C2=O
- IC50 [1]: < 0.25 µM
- EC50 [2]: < 20 µM

Structure (SMILES): CC[C@@H](C)[C@@H](N)C(=O)OCOc1c2n(ncc1=O)[C@@H](C1c3cccc(F)c3CCc3c(F)cccc31)CN(C(C)C)C2=O
- IC50 [1]: < 0.25 µM
- EC50 [2]: < 20 µM

Structure (SMILES): O=C1c2c(O)c(=O)cnn2[C@@H](C2c3cccc(F)c3CCc3c(F)cccc32)CN1CC(F)(F)F
- IC50 [1]: < 0.25 µM
- EC50 [2]: < 20 µM

Structure (SMILES): CCCN1C[C@H](C2c3cccc(F)c3CCc3c(F)cccc32)n2ncc(=O)c(O[C@@H](C)OC(=O)OCC)c2C1=O
- IC50 [1]: < 0.25 µM
- EC50 [2]: < 20 µM

Structure (SMILES): O=C1c2c(O)c(=O)cnn2[C@@H](C2c3ccccc3CCc3ccccc32)CN1CCC(F)(F)F
- IC50 [1]: < 0.25 µM
- EC50 [2]: < 20 µM

Structure (SMILES): O=C1c2c(O)c(=O)cnn2[C@@H](C2c3cccc(F)c3CCc3c(F)cccc32)CN1CCC(F)(F)F
- IC50 [1]: < 0.25 µM
- EC50 [2]: < 20 µM

Structure (SMILES): CN1C[C@H](C(c2cccc(Cl)c2)c2cccc(Cl)c2)n2ncc(=O)c(O)c2C1=O
- IC50 [1]: < 0.25 µM
- EC50 [2]: < 20 µM

Structure (SMILES): CC(C)[C@@H](N)C(=O)OCOc1c2n(ncc1=O)[C@@H](C1c3ccccc3CCc3ccccc31)CN(C(C)C)C2=O
- IC50 [1]: < 0.25 µM
- EC50 [2]: < 20 µM

Structure (SMILES): CCn1cc([C@H](c2ccccc2)[C@H]2CN(C)C(=O)c3c(O)c(=O)cnn32)c2ccccc21 (relative stereo)
- IC50 [1]: 0.25 to 1 µM
- EC50 [2]: < 20 µM

Structure (SMILES): O=C1c2c(O)c(=O)cnn2[C@@H](C2c3ccccc3CCc3ccccc32)CN1CC(F)F
- IC50 [1]: < 0.25 µM
- EC50 [2]: < 20 µM

Structure (SMILES): CN1CC(C(c2ccccc2)n2ncc3ccccc32)n2ncc(=O)c(O)c2C1=O (stereo not drawn)
- IC50 [1]: < 0.25 µM
- EC50 [2]: < 20 µM

Structure (SMILES): CC(C)C[C@@H](N)C(=O)OCOc1c2n(ncc1=O)[C@@H](C1c3cccc(F)c3CCc3c(F)cccc31)CN(C(C)C)C2=O
- IC50 [1]: < 0.25 µM
- EC50 [2]: < 20 µM

Structure (SMILES): O=C1c2c(O)c(=O)cnn2[C@@H](C(c2ccccc2)c2ccccc2)CN1CC(F)(F)F
- IC50 [1]: < 0.25 µM
- EC50 [2]: < 20 µM

Structure (SMILES): CCOC(=O)O[C@H](C)Oc1c2n(ncc1=O)[C@@H](C1c3ccccc3CCc3ccccc31)CN(C(C)C)C2=O
- IC50 [1]: < 0.25 µM

Structure (SMILES): O=C1c2c(O)c(=O)cnn2[C@@H](C2c3ccccc3CCc3ccccc32)CN1CC(F)(F)F
- IC50 [1]: < 0.25 µM
- EC50 [2]: < 20 µM

Structure (SMILES): CCCN1C[C@H](C2c3cccc(F)c3CCc3c(F)cccc32)n2ncc(=O)c(OCOC(=O)[C@@H](N)C(C)C)c2C1=O
- IC50 [1]: < 0.25 µM
- EC50 [2]: < 20 µM

Structure (SMILES): CC(C)[C@@H](N)C(=O)OCOc1c2n(ncc1=O)[C@@H](C1c3cccc(F)c3CCc3c(F)cccc31)CN(C(C)C)C2=O
- IC50 [1]: < 0.25 µM
- EC50 [2]: < 20 µM

Structure (SMILES): CCCN1C[C@H](C2c3cccc(F)c3CCc3c(F)cccc32)n2ncc(=O)c(O[C@H](C)OC(=O)OCC)c2C1=O (relative stereo)
- IC50 [1]: > 1 µM
- EC50 [2]: < 20 µM

Structure (SMILES): COC(=O)c1nn([C@H](c2ccccc2)[C@H]2CN(C)C(=O)c3c(O)c(=O)cnn32)c2ccccc12 (relative stereo)
- IC50 [1]: < 0.25 µM
- EC50 [2]: < 20 µM

Structure (SMILES): CC(C)C[C@H](N)C(=O)OCOc1c2n(ncc1=O)[C@@H](C1c3cccc(F)c3CCc3c(F)cccc31)CN(C(C)C)C2=O
- IC50 [1]: < 0.25 µM
- EC50 [2]: < 20 µM

Structure (SMILES): CC(C)N1C[C@H](C2c3cccc(Cl)c3CCc3c(Cl)cccc32)n2ncc(=O)c(O)c2C1=O
- IC50 [1]: < 0.25 µM
- EC50 [2]: < 20 µM

Structure (SMILES): CN1C[C@H]([C@H](c2ccccc2)n2nc(CO)c3ccccc32)n2ncc(=O)c(O)c2C1=O (relative stereo)
- IC50 [1]: < 0.25 µM
- EC50 [2]: < 20 µM

Structure (SMILES): O=C1c2c(O)c(=O)cnn2[C@@H](C(c2ccccc2)c2ccccc2)CN1CC=C(F)F
- IC50 [1]: < 0.25 µM
- EC50 [2]: < 20 µM

Structure (SMILES): CN1C[C@H]([C@@H](c2ccccc2)n2nc(CO)c3ccccc32)n2ncc(=O)c(O)c2C1=O (relative stereo)
- IC50 [1]: < 0.25 µM
- EC50 [2]: < 20 µM

Structure (SMILES): CC(C)N1C[C@H](C2c3ccccc3CCc3ccccc32)n2ncc(=O)c(OCOC(=O)[C@H](N)Cc3ccccc3)c2C1=O
- IC50 [1]: < 0.25 µM

Structure (SMILES): CCOC(=O)OC(C)Oc1c2n(ncc1=O)[C@@H](C1c3cccc(F)c3CCc3c(F)cccc31)CN(C(C)C)C2=O (stereo partly drawn)
- IC50 [1]: > 1 µM
- EC50 [2]: < 20 µM

Structure (SMILES): CCn1cc([C@@H](c2ccccc2)[C@H]2CN(C)C(=O)c3c(O)c(=O)cnn32)c2ccccc21 (relative stereo)
- IC50 [1]: 0.25 to 1 µM
- EC50 [2]: < 20 µM

Structure (SMILES): CCCN1C[C@H](C2c3cccc(F)c3CCc3c(F)cccc32)n2ncc(=O)c(OCOC(=O)[C@H](N)C(C)C)c2C1=O
- IC50 [1]: < 0.25 µM
- EC50 [2]: < 20 µM

Structure (SMILES): CN1C[C@H]([C@H](c2ccccc2)c2cn(C)c3cnccc23)n2ncc(=O)c(O)c2C1=O (relative stereo)
- IC50 [1]: < 0.25 µM
- EC50 [2]: < 20 µM

Structure (SMILES): CN1C[C@H]([C@H](c2ccccc2)n2cccn2)n2ncc(=O)c(O)c2C1=O (relative stereo)
- IC50 [1]: < 0.25 µM
- EC50 [2]: < 20 µM

Structure (SMILES): O=C1c2c(O)c(=O)cnn2[C@@H](C(c2ccccc2)c2ccccc2)CN1CCC(F)(F)F
- IC50 [1]: < 0.25 µM
- EC50 [2]: < 20 µM

Structure (SMILES): COC(=O)c1nn([C@@H](c2ccccc2)[C@H]2CN(C)C(=O)c3c(O)c(=O)cnn32)c2ccccc12 (relative stereo)
- IC50 [1]: < 0.25 µM
- EC50 [2]: < 20 µM

Structure (SMILES): CC(C)N1C[C@H](C2c3ccccc3CCc3ccccc32)n2ncc(=O)c(OCOC(=O)C(C)(C)N)c2C1=O
- IC50 [1]: < 0.25 µM

Structure (SMILES): CC[C@H](C)[C@H](N)C(=O)OCOc1c2n(ncc1=O)[C@@H](C1c3cccc(F)c3CCc3c(F)cccc31)CN(C(C)C)C2=O
- IC50 [1]: < 0.25 µM
- EC50 [2]: < 20 µM

Structure (SMILES): CN1C[C@H]([C@@H](c2ccccc2)n2cc(C#CC3COC3)c(C#CC3COC3)n2)n2ncc(=O)c(O)c2C1=O (relative stereo)
- IC50 [1]: > 1 µM

Structure (SMILES): CC(C)N1C[C@H](C2c3ccccc3CCc3ccccc32)n2ncc(=O)c(OCOC(=O)[C@@H](N)Cc3ccccc3)c2C1=O
- IC50 [1]: < 0.25 µM

Structure (SMILES): CCOC(=O)O[C@@H](C)Oc1c2n(ncc1=O)[C@@H](C1c3ccccc3CCc3ccccc31)CN(C(C)C)C2=O
- IC50 [1]: < 0.25 µM

From patent publication US10208045B2, “Aza-pyridone compounds and uses thereof” (Alios BioPharma, Inc., priority 2015, dated 2019)
